Pooled drug test results. Numbers come from NIAID ChemDB, via PubChem.

Shared fields: target-level tests; agent: HIV-1; target: Protease

Blank or dashed fields: not listed here. ICn: concentration for n% inhibition. Rows are shuffled and stem from different studies.

CC[C@H](C)[C@H](NC(=O)OC(C)(C)C)C(=O)N[C@H]1[C@@H](CC(=O)N[C@H](C(=O)OC)C(C)C)CC[C@@H]1O ; method: absorbance ; endpoint: IC50 ; result: >10 µM
CC(C)[C@H](NC(=O)[C@H](C)NS(=O)(=O)c1ccccc1)C(=O)N[C@@H](Cc1ccccc1)[C@@H](O)[C@H](O)[C@H](Cc1ccccc1)NC(=O)[C@@H](NC(=O)[C@H](C)NS(=O)(=O)c1ccccc1)C(C)C ; endpoint: IC50 ; result: 0.046 µM
CC(C)c1ccccc1Sc1c(O)cc(-c2ccc(OCn3cnnn3)cc2)oc1=O ; conditions: pH 4.7 ; method: HPLC ; endpoint: IC50 ; result: 0.036 µM
CC(C)C[C@H](NC(=O)[C@@H](NC(=O)CCCCCCCCCCCCCCC(=O)N[C@@H](CS(C)(=O)=O)C(=O)N[C@@H](Cc1ccccc1)C(=O)O)C(C)O)C(=O)N[C@@H](Cc1ccccc1)C(N)=O ; endpoint: IC50 ; result: 2.9 µM
CC(C)c1ccccc1Sc1c(O)cc(-c2cccc(OCc3cccnc3)c2)oc1=O ; conditions: pH 4.7 ; method: HPLC ; endpoint: IC50 ; result: 0.045 µM
CN=C(NC#N)NCCCCCC(C)(C)CN(C[C@@H](O)[C@H](Cc1ccccc1)NC(=O)O[C@H]1CO[C@H]2OCC[C@H]21)S(=O)(=O)c1ccc2c(c1)OCO2 ; method: fluorescence ; endpoint: Ki ; result: <0.001 µM
CC(C)C[C@H](NC(=O)[C@@H](NC(=O)CCCCCCCCCCCCCCC(=O)N[C@H](C(=O)N[C@@H](Cc1ccccc1)C(=O)O)C(C)C)C(C)O)C(=O)N[C@@H](Cc1ccccc1)C(N)=O ; endpoint: Ki ; result: 0.93 µM
CCOC(=O)NCCCCC(C)(C)CN(C[C@@H](O)[C@H](Cc1ccccc1)NC(=O)O[C@H]1CO[C@H]2OCC[C@H]21)S(=O)(=O)c1ccc2c(c1)OCO2 ; method: fluorescence ; endpoint: Ki ; result: <0.001 µM
CC(C)[C@H](NC(=O)[C@H](C)NC(=O)c1cccnc1)C(=O)N[C@@H](Cc1ccccc1)C(O)C(O)[C@H](Cc1ccccc1)NC(=O)[C@@H](NC(=O)[C@H](C)NC(=O)c1cccnc1)C(C)C ; endpoint: IC50 ; result: 0.011 µM
CC(C)(CCC#N)CN(C[C@@H](O)[C@H](Cc1ccccc1)NC(=O)O[C@@H]1CO[C@@H]2OCC[C@@H]21)S(=O)(=O)c1cccc(N)c1 ; method: fluorescence ; endpoint: Ki ; result: <0.001 µM
CC(C)[C@H](NC(=O)[C@H](C)NC(=O)Oc1ccccc1)C(=O)N[C@@H](Cc1ccccc1)[C@@H](O)[C@H](O)[C@H](Cc1ccccc1)NC(=O)Oc1ccccc1 ; endpoint: IC50 ; result: 0.1 µM
COC(=O)[C@H](CC(C)C)NC(=O)C[C@H]1CC[C@H](O)[C@H]1NC(=O)[C@H](Cc1ccccc1)NC(=O)OC(C)(C)C ; method: absorbance ; endpoint: IC50 ; result: 20 µM
CCCCCCCCCCCCCCCc1cccc(O)c1 ; method: HPLC ; endpoint: IC50 ; result: >100 µM
CC(C)[C@H](NC(=O)[C@H](C)NC(=O)Nc1ccc(OC(F)(F)F)cc1)C(=O)N[C@@H](Cc1ccccc1)C(O)C(O)[C@H](Cc1ccccc1)NC(=O)[C@@H](NC(=O)[C@H](C)NC(=O)Nc1ccc(OC(F)(F)F)cc1)C(C)C ; endpoint: IC50 ; result: 1.8 µM
COC(=O)NCCCCC(C)(C)CN(C[C@@H](O)[C@H](Cc1ccccc1)NC(=O)O[C@H]1CCOC1)S(=O)(=O)c1ccc2c(c1)OCO2 ; method: fluorescence ; endpoint: Ki ; result: <0.001 µM
CC(C)[C@H](NC(=O)[C@H](C)NC(=O)OCc1ccccc1)C(=O)N[C@@H](Cc1ccccc1)[C@@H](O)[C@H](O)[C@H](Cc1ccccc1)NC(=O)[C@@H](NC(=O)[C@H](C)NC(=O)OCc1ccccc1)C(C)C ; endpoint: IC50 ; result: 0.004 µM
CC[C@H](C)[C@H](NC(=O)OCc1ccccc1)C(=O)N[C@@H](Cc1ccccc1)C(=O)N[C@@H]1[C@H](CC(=O)N[C@H](C(=O)OC)C(C)C)CC[C@H]1O ; method: absorbance ; endpoint: Ki ; result: 2 µM
CCCCCCCCCCCCCCCc1cccc(O)c1C(=O)O ; method: HPLC ; endpoint: IC50 ; result: 10.2 µM
CCCNC(=O)OCCC(C)(C)CN(C[C@@H](O)[C@H](Cc1ccccc1)NC(=O)O[C@H]1CO[C@H]2OCC[C@H]21)S(=O)(=O)c1ccc2c(c1)OCO2 ; method: fluorescence ; endpoint: Ki ; result: <0.001 µM
CC(C)C[C@H](NC(=O)[C@@H](NC(=O)CCCCCCCCCCCCCCC(=O)N[C@@H](CC(N)=O)C(=O)N[C@@H](Cc1ccccc1)C(=O)O)C(C)O)C(=O)N1Cc2ccccc2CC1C(=O)O ; endpoint: IC50 ; result: 32.3 µM
CC[C@H](C)[C@H](NC(=O)OCc1ccccc1)C(=O)N[C@@H](Cc1ccccc1)C(=O)N[C@H]1CC[C@@H](CC(=O)N[C@H](C(=O)OC)C(C)C)[C@@H]1O ; method: absorbance ; endpoint: IC50 ; result: 12 µM
CCCCCC/C=C/CCCCCCCCCc1cccc(O)c1C(=O)O ; method: HPLC ; endpoint: IC50 ; result: 17.8 µM
CC(C)C[C@H](NC(=O)[C@@H](NC(=O)CCCCCCCCCCCCCCC(=O)N[C@@H](CC(N)=O)C(=O)N[C@@H](Cc1ccc2ccccc2c1)C(=O)O)C(C)O)C(=O)N[C@@H](Cc1ccccc1)C(N)=O ; endpoint: IC50 ; result: 5.2 µM
CC(C)(CCCNC(=O)C1CCCC1)CN(C[C@@H](O)[C@H](Cc1ccccc1)NC(=O)O[C@H]1CO[C@H]2OCC[C@H]21)S(=O)(=O)c1ccc2c(c1)OCO2 ; method: fluorescence ; endpoint: Ki ; result: <0.001 µM
CC(C)c1ccccc1Sc1c(O)cc(-c2ccc(OCC(=O)O)cc2)oc1=O ; conditions: pH 4.7 ; method: HPLC ; endpoint: IC50 ; result: 0.019 µM
COC(=O)NCCCC(C)(C)CN(C[C@@H](O)[C@H](Cc1ccccc1)NC(=O)O[C@H]1CO[C@H]2OCC[C@H]21)S(=O)(=O)c1cccc(N)c1 ; method: fluorescence ; endpoint: Ki ; result: <0.001 µM
COC(=O)[C@@H](NC(=O)C[C@@H]1CC[C@@H](O)[C@@H]1NC(=O)[C@H](Cc1ccccc1)NC(=O)OC(C)(C)C)C(C)C ; method: absorbance ; endpoint: IC50 ; result: >10 µM
CCCNC(=S)NCCCCC(C)(C)CN(C[C@@H](O)[C@H](Cc1ccccc1)NC(=O)O[C@H]1CO[C@H]2OCC[C@H]21)S(=O)(=O)c1ccc2c(c1)OCO2 ; method: fluorescence ; endpoint: Ki ; result: <0.001 µM
CC(C)[C@H](NC(=O)[C@H](C)NS(=O)(=O)c1ccc([N+](=O)[O-])cc1)C(=O)N[C@@H](Cc1ccccc1)C(O)C(O)[C@H](Cc1ccccc1)NC(=O)[C@@H](NC(=O)[C@H](C)NS(=O)(=O)c1ccc([N+](=O)[O-])cc1)C(C)C ; endpoint: IC50 ; result: 0.079 µM
CC(=O)CCC(C)(C)CN(C[C@@H](O)[C@H](Cc1ccccc1)NC(=O)O[C@H]1CO[C@H]2OCC[C@H]21)S(=O)(=O)c1cccc2c1OCCO2 ; method: fluorescence ; endpoint: Ki ; result: <0.001 µM
CC(O)[C@H](NC(=O)CCCCCCCCCCCCCCC(=O)N[C@@H](CC(N)=O)C(=O)N[C@@H](Cc1ccccc1)C(=O)O)C(=O)N[C@@H](CC1CCCCC1)C(=O)N[C@@H](Cc1ccccc1)C(N)=O ; endpoint: IC50 ; result: 1.55 µM
CCCOC(=O)NCCCC(C)(C)CN(C[C@@H](O)[C@H](Cc1ccccc1)NC(=O)O[C@H]1CO[C@H]2OCC[C@H]21)S(=O)(=O)c1ccc2c(c1)OCO2 ; method: fluorescence ; endpoint: Ki ; result: <0.001 µM
CC(C)(C)c1ccccc1Sc1c(O)cc(-c2ccc(OCc3cccnc3)cc2)oc1=O ; conditions: pH 6.2 ; method: HPLC ; endpoint: IC50 ; result: 0.32 µM
CCCS(=O)(=O)NCCCCC(C)(C)CN(C[C@@H](O)[C@H](Cc1ccccc1)NC(=O)O[C@H]1CO[C@H]2OCC[C@H]21)S(=O)(=O)c1ccc2c(c1)OCO2 ; method: fluorescence ; endpoint: Ki ; result: <0.001 µM
CC[C@H](C)[C@H](NC(=O)[C@@H](NC(=O)CCCCCCCCCCCCCCC(=O)N[C@@H](CC(N)=O)C(=O)N[C@@H](Cc1ccccc1)C(=O)O)C(C)O)C(=O)N[C@@H](Cc1ccccc1)C(N)=O ; endpoint: IC50 ; result: 2.48 µM
CC(C)(CCCCNC(=O)CN)CN(C[C@@H](O)[C@H](Cc1ccccc1)NC(=O)O[C@H]1CO[C@H]2OCC[C@H]21)S(=O)(=O)c1ccc2c(c1)OCO2 ; method: fluorescence ; endpoint: Ki ; result: <0.001 µM
CC[C@H](C)[C@H](NC(=O)OC(C)(C)C)C(=O)N[C@H]1[C@@H](CC(=O)N[C@@H](CC(C)C)C(=O)OC)CC[C@@H]1O ; method: absorbance ; endpoint: IC50 ; result: >10 µM

4 of the rows above, restated:

| structure | conditions | method | endpoint | result |
|---|---|---|---|---|
| CC[C@H](C)[C@H](NC(=O)OC(C)(C)C)C(=O)N[C@H]1[C@@H](CC(=O)N[C@@H](CC(C)C)C(=O)OC)CC[C@@H]1O |  | absorbance | IC50 | >10 µM |
| CC[C@H](C)[C@H](NC(=O)OCc1ccccc1)C(=O)N[C@@H](Cc1ccccc1)C(=O)N[C@H]1CC[C@@H](CC(=O)N[C@H](C(=O)OC)C(C)C)[C@@H]1O |  | absorbance | IC50 | 12 µM |
| CC(O)[C@H](NC(=O)CCCCCCCCCCCCCCC(=O)N[C@@H](CC(N)=O)C(=O)N[C@@H](Cc1ccccc1)C(=O)O)C(=O)N[C@@H](CC1CCCCC1)C(=O)N[C@@H](Cc1ccccc1)C(N)=O |  |  | IC50 | 1.55 µM |
| COC(=O)[C@@H](NC(=O)C[C@@H]1CC[C@@H](O)[C@@H]1NC(=O)[C@H](Cc1ccccc1)NC(=O)OC(C)(C)C)C(C)C |  | absorbance | IC50 | >10 µM |